Results of unrelated studies side by side (data: NIAID ChemDB).

Common to all: toxicity to cultured cells; cells: A549; method: MTT; measure: CC50

Neighbouring rows are from separate reports. CCn: concentration that lowers growth or viability of the cells by n%.

structure,value
CO[C@H]1/C=C/O[C@@]2(C)Oc3c(C)c(O)c4c(O)c(c(/C=N/N5CCN(C)CC5)c(O)c4c3C2=O)NC(=O)/C(C)=C\C=C\[C@H](C)[C@H](O)[C@@H](C)[C@@H](O)[C@@H](C)[C@H](OC(C)=O)[C@@H]1C,>100 µg/mL
Fc1ccc(-c2nc(SCC3CC3)n[nH]2)cc1,>100 µg/mL
Cc1ccc(S(=O)(=O)Nc2ccccc2[Se][Se]c2ccccc2NS(=O)(=O)c2ccc(C)cc2)cc1,10 µg/mL
CCSc1nnc(-c2ccc(F)cc2)o1,>100 µg/mL
O=C(Nc1ccccc1[Se][Se]c1ccccc1NC(=O)c1ccccc1)c1ccccc1,50 µg/mL
S=c1nc(-c2ccco2)[nH][nH]1,>100 µg/mL
CC(C)(C)CC(C)(C)c1ccc(OCCOP(=O)([O-])OCCC[N+](C)(C)Cc2ccccc2)cc1,>100 µM
O=[N+]([O-])c1ccc(-c2nc(SCC3CC3)n[nH]2)cc1,>100 µg/mL
CCCCCCCCCCCCCCCCOP(=O)([O-])OCCC[n+]1ccccc1,61.6 µM
Cc1cc(NS(=O)(=O)c2ccc(N3C(=O)CSC3c3ccc(C(F)(F)F)cc3)cc2)no1,>100 µg/mL
Nc1ccccc1[Se][Se]c1ccccc1N,7 µg/mL
CCCCCCCCCCCCCCCCOP(=O)([O-])OCC[n+]1ccccc1,9.9 µM
C(=Nc1ccccc1[Se][Se]c1ccccc1N=Cc1ccccc1)c1ccccc1,10 µg/mL
CCCCSc1n[nH]c(-c2ccccc2C)n1,>100 µg/mL
O=C(CCC[Se][Se]CCCC(=O)Nc1ccc(S(=O)(=O)N2CCCCC2)cc1)Nc1ccc(S(=O)(=O)N2CCCCC2)cc1,275 µg/mL
Cc1cc(NS(=O)(=O)c2ccc(N3C(=O)CSC3c3ccc(Cl)cc3)cc2)no1,>100 µg/mL
Fc1ccc(-c2nc(SCCCCBr)n[nH]2)cc1,>100 µg/mL
CCCN1[Se]c2ccccc2NC1=S,117 µg/mL
CCCCCCCCCCCCCCCCOP(=O)([O-])OCCC[N+](C)(C)Cc1ccccc1,57.6 µM

Repeating the final 2 entries:

{"structure": "CCCN1[Se]c2ccccc2NC1=S", "value": "117 µg/mL"}
{"structure": "CCCCCCCCCCCCCCCCOP(=O)([O-])OCCC[N+](C)(C)Cc1ccccc1", "value": "57.6 µM"}